Laboratory results published in patent publication US20240026086A1, “POLYPHENOL DERIVATIVE AND POLYMER MATERIAL” (TOPPAN INC., priority 2020, published 2024).

Assay: Light emission visibility test of coating films on glass under 365 nm ultraviolet light
Format: physicochemical
Settings: ultraviolet irradiation 365 nm

Question: With `O=C(OC[C@H]1O[C@@H](OC(=O)c2cc(O)c(O)c(OC(=O)c3cc(O)c(O)c(O)c3)c2)[C@H](OC(=O)c2cc(O)c(O)c(OC(=O)c3cc(O)c(O)c(O)c3)c2)[C@@H](OC(=O)c2cc(O)c(O)c(OC(=O)c3cc(O)c(O)c(O)c3)c2)[C@@H]1OC(=O)c1cc(O)c(O)c(OC(=O)c2cc(O)c(O)c(O)c2)c1)c1cc(O)c(O)c(OC(=O)c2cc(O)c(O)c(O)c2)c1` [compound 1, tannic acid] as the molecule, how does the “light emission at a wavelength in a visible range (in words)” value read?
Answer: almost no light emission at a wavelength in a visible range was observed
